## Screening data, single-dose tests

Data taken from ChEMBL document CHEMBL3988442, “University of Dundee, Small-Polar-MMV Screening Library” (2021).

Values are the deposited “Percent Effect”, in %.
The record does not define 0% and 100%; most values in the screen are far below 50% and negative numbers occur (in some assays of this library far below -100).
Many other results are left out here, so strong results are more common than in the screen.
A dash means the value is not listed here; it may have been measured.

A: 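Growth of Mycobacterium tuberculosis over 4 days (cholesterol / DPPC medium with tyloxapol); the read-out is not stated. Compounds at 500 µM. Higher reads as more growth inhibition (inferred: compounds with an IC50 in retests scored well above the rest). Size under these conditions: about 18,000 compounds, about 900 of them at 50% or above in at least one test.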
B: 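Growth of Mycobacterium tuberculosis over 3 days (7H9 medium with glucose and tyloxapol); the read-out is not stated. Compounds at 500 µM. The record gives no direction; compounds that gave an IC50 in retests scored well above the rest, so higher reads as more growth inhibition. About 18,000 compounds were tested under these conditions; 7.9% (about 1,400) showed 50% or more at least once.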

SMILES,A,B
CN(C)c1nc(Cl)c(CN)s1,-,-9.309%
CN(Cc1ccccc1)C(=O)CCN,2.449%,10.04%
NCc1ccc(N2CCOCC2)cc1,-,-6.967%
COCCNC(=O)COC(=O)c1ccc2ncsc2c1,-13.09%,-
COCC(=O)NCc1ccccc1CN1CCCC1=O,-,-8.054%
COCCN(Cc1ccco1)S(=O)(=O)CCOC,-17.95%,12.21%
O=C(NCc1cccnc1)NC1CCCC1,0.2058%,-
Cc1cc(CNC(=O)C2(C)CCN(C)CC2)n(C)n1,-8.497%,-
O=C(CN1CCN(c2ccccc2)CC1)N1CCCC1,-,50.64%
CN1CC(=O)Nc2cccnc21,92.12%,91.84%
Cc1[nH]cnc1CN1CCC(Oc2ncccn2)CC1,-,21.83%
NC1(c2nc(C3CC3)cc(=O)[nH]2)CCCC1,-,51.9%
NCC1CCCN1CCc1ccccc1 (stereo not given),85.02%,-
COc1ccc(OCCCS(N)(=O)=O)cc1,20.79%,-
CC1CSc2ccccc2C(=O)N1 (stereo not given),-,-1.431%
CN(CCc1ccccn1)CCN1CCCC1=O,12.66%,-
COc1ccc(O)c(C(=O)NC(C)c2n[nH]c(C)n2)c1 (stereo not given),12.41%,-
Cc1ccsc1C(=O)N(C)C,-13.37%,-
CCO[C@H]1COC[C@@H]1NC(=O)c1cnc(O)cn1,-,-0.2969%
Cc1nnc(NC(=O)NC2CCNCC2)s1,0.8626%,16.28%
Cc1nc(CN(C)C2CCCNCC2)no1 (stereo not given),-,18.91%
Cc1cc(CN(C)S(=O)(=O)c2c(C)noc2C)no1,-,0.9692%
CCN1CCCC(CNC(=O)Nc2cnn(CC)c2)C1 (stereo not given),-,1.989%
CCCNC(=O)C1=NN(C)C(=O)CC1,-,5.881%
CCN(Cc1ccn(CC)n1)[C@H]1COC[C@@H]1O,13.98%,-
CCN1CCN(CC(=O)Nc2ccc(OC)cc2)CC1,-,14.97%
O=C(N[C@@H]1CCNC[C@H]1O)c1ccc(Cl)cn1,-,1.833%
NC(=O)c1cccnc1-c1ccc(O)cc1,-,19.15%
CCOCCN1CCN(Cc2nnc(OCC)s2)CC1,70.56%,14.81%
CC(=O)NCCC(=O)NCC1(c2ccccc2)CC1,-,25.11%
Cn1nc(-c2cc(F)cc(F)c2)cc1N,-,32.73%
CNc1ncccc1F,-5.014%,-4.463%
N#Cc1cccc(NC(=O)NCCn2ccnc2)c1,-,14.43%
CC(=O)N1CCc2cc(C(=O)C(C)O)ccc21 (stereo not given),-,2.342%
O=C(Cn1cnc2ccccc2c1=O)N1CCCCC1,-8.636%,-
CCCn1cc(S(=O)(=O)NC(CC)[C@H]2C[C@@H](O)C2)cn1 (stereo not given in full),7.942%,-
O=C(CN1CCCC1=O)NCCc1cscn1,-,4.127%
C[C@H](N)CNCc1cc(O)c2cc(F)ccc2n1,-,9.735%
CN(C)C(=O)CCCn1ccc(N)n1,2.415%,-3.803%
O=C(NCCN1CCNCC1)C1CCCC1,-,-0.8019%
Cc1ccc(S(=O)(=O)NCCN)cc1Cl,18.27%,49.45%
CC(=O)N1CCN(C2CC(N)C2)CC1 (stereo not given),-13.52%,-
NCc1ccc(N)nc1,-,8.193%
CC(N)COCC1CC1 (stereo not given),-7.437%,-
CN1CCCN(S(=O)(=O)c2ccc(Br)cn2)CC1,-,13.28%
Cc1noc(C(C)N2CCn3ccnc3C2)n1 (stereo not given),-,4.218%
CCCNC(=O)N1CCC2(CC1)OCCO2,32.46%,-
CC(NS(C)(=O)=O)C(=O)NCc1nnc2n1CCCC2 (stereo not given),11.67%,-
COc1c(CNCCCN(C)S(C)(=O)=O)c(C)nn1C,-,7.096%
CCOc1cc(C)ccc1S(N)(=O)=O,-,39.48%
Cn1cc(-c2csc(CCN3CCOC3=O)n2)cn1,7.756%,-
CS(=O)(=O)c1nccn1CCN1CCCCC1,-,-17.25%
NC(Cc1ccccn1)c1cccnc1 (stereo not given),-13.38%,-
Cn1cc(Br)c(=O)c(NC(=O)c2cccc(C#N)c2)c1,-8.72%,-
COc1cc(CNc2ncnc3c2cnn3C)ccn1,14.2%,-
COc1ccccc1CNc1ccc(C#N)cn1,65.99%,49.78%
O=S1(=O)CCNC(C2CCC2)C1 (stereo not given),-33.51%,-
COCC1(C(=O)NCCNc2cccnc2)CCC1,-,10.23%
CCc1[nH]nc(N)c1-c1ccc2c(c1)OCO2,-,39.54%
Cc1ccsc1CN(C)C(=O)c1ccc(=O)n(C)n1,-1.34%,-
CCC(=O)c1cccc(S(=O)(=O)NC(CN)C2CC2)c1 (stereo not given),-,56.09%
NCC1CN(Cc2c(Cl)cncc2Cl)CCO1 (stereo not given),50.48%,-
CN(C)C(=O)CN(c1ccc(Cl)cc1Cl)S(C)(=O)=O,-,12.56%
CCCn1ncnc1C(C)NC(=O)c1ccc(N)nc1 (stereo not given),-,-7.894%
COc1cccc(CNCc2ccc(C(N)=O)cc2)c1,3.314%,-
C=C(C)COc1c(Cl)cc(C(N)=O)cc1OC,78.29%,83.29%
CC(C)(C)CC(=O)NCC(=O)N1CCOC(C)(C)C1,-5.88%,-